Drawing on EP0706514B1, “COMPOUNDS AND METHODS FOR INHIBITION OF HIV AND RELATED VIRUSES” (MEDIVIR AB, priority 1993, dated 1995), this text covers IC50 for 1 compound.

Where “and” joins values, the source holds several entries; their conditions need not be identical. Equal values may be shown once.

For this test, the target named is recombinant HIV-RT (Human immunodeficiency virus type 1 group M subtype B, UniProt P04585). The following applies: Test I.

On to `CCOc1ccc(F)c([C@@H]2C[C@@H]2NC(=O)Nc2ccc(Cl)cn2)c1Cl` (relative stereo), for which the IC50 was 1.1 ng/mL and 2 ng/mL.
